Anti-infective test results gathered from many reports (values: NIAID ChemDB through PubChem).

All rows: growth or infection tests; agent: HIV-1; cell line: PBMC; measure: EC90

ECn: concentration that inhibits the pathogen or its effect by n%. Lines come from different laboratories, so protocols vary. Two numbers with a dash give a range or band. Blank or dashed fields: not listed here.

structure	strain	changes	read by	value
CCC[C@@H](c1ccc(C(F)(F)F)cc1)N1CCN(C2(C)CCN(C(=O)c3c(C)ncnc3C)CC2)C[C@@H]1C	301657 Clinical isolates	-	-	0.00009 µM
Cc1c(O)cccc1C(=O)N[C@@H](CSc1ccccc1)[C@H](O)CN1C[C@H]2CCCC[C@H]2C[C@H]1C(=O)NC(C)(C)C	HXB2	PR-M46I I47V I50V	p24	0.035 µM
Cc1cn([C@H]2C[C@H](N=[N+]=[N-])[C@@H](CO)O2)c(=O)[nH]c1=O	A018A	-	-	0.19–0.34 µg/mL
CC(C)(C)NC(=O)[C@@H]1C[C@@H]2CCCC[C@@H]2CN1C[C@@H](O)[C@H](Cc1ccccc1)NC(=O)[C@H](CC(N)=O)NC(=O)c1ccc2ccccc2n1	BR58 (PR L10I K20R M36I/V P63L/S L90M)	PR-L10I K20R M36I/V P63L/S L90M	p24	0.021 µM
CCC[C@@]1(CCc2ccccc2)CC(O)=C([C@H](CC)c2cccc(NS(=O)(=O)c3ccc(C(F)(F)F)cn3)c2)C(=O)O1	410 clinical isolates AZT-resistant	-	p24	0.04 µM
Cc1ncnc(C)c1C(=O)N1CCC(C)(N2CCN([C@@H](Cc3ccccc3)c3ccc(C(F)(F)F)cc3)[C@@H](C)C2)CC1	RU570 Clinical isolates	-	-	0.004 µM
Nc1ccn([C@H]2O[C@@H](CO)C=C2F)c(=O)n1	xxBRU	-	-	2.1 µM
CCN(c1ncccc1NC(C)(C)C)C1CCN(C(=O)c2cc3cc(NS(C)(=O)=O)ccc3[nH]2)CC1	Isolate 461	-	p24	0.03 µM
CC(C)=CCN1Cc2cccc3[nH]c(=S)n(c23)C[C@@H]1C	Group O isolate	-	RT activity	5.6 µM
O=C1N(Cc2ccc(CO)cc2)[C@H](Cc2ccccc2)[C@H](O)[C@@H](O)[C@@H](Cc2ccccc2)N1Cc1ccc(CO)cc1	IIIB	-	p24	0.05 µM
Cc1cn([C@H]2C[C@H](N=[N+]=[N-])[C@@H](CO)O2)c(=O)[nH]c1=O	XM-AZT-resistant	RT-M41L D67N K70R T215Y K219Q	p24	6.7 µM
Nc1ccn([C@H]2CC[C@@H](CO)O2)c(=O)n1	HXB2	-	p24	0.7 µM
Cc1ccnc2c1NC(=O)c1cccnc1N2C1CC1	Subtype B isolate	-	RT activity	0.22 µM
CC(C)CN(C[C@@H](O)[C@H](Cc1ccccc1)NC(=O)[C@@H](NC(=O)CNCc1cccc(F)c1)C(C)(C)C)S(=O)(=O)c1cccc(N)c1	NL4-3	-	p24	0.0065 µM
O=c1[nH]cnc2c1ncn2[C@H]1CC[C@@H](CO)O1	XM-T69SSS	RT-T69SSS L210W T215Y	p24	38 µM
CC(C)Nc1cccnc1N1CCN(C(=O)c2cc3cc(NS(C)(=O)=O)ccc3[nH]2)CC1	6 clinical isolates AZT-resistant	-	p24	0.1 µM
Cc1cn([C@H]2C[C@H](N=[N+]=[N-])[C@@H](CO)O2)c(=O)[nH]c1=O	Isolate 458	-	p24	0.3 µM
Nc1ccn([C@@H]2S[C@H](CO)C=C2F)c(=O)n1	3TC-resistant (RT M184V)	RT-M184V	-	~125 µM

Again, the opening 2 rows:

structure | strain | changes | read by | value
CCC[C@@H](c1ccc(C(F)(F)F)cc1)N1CCN(C2(C)CCN(C(=O)c3c(C)ncnc3C)CC2)C[C@@H]1C | 301657 Clinical isolates | - | - | 0.00009 µM
Cc1c(O)cccc1C(=O)N[C@@H](CSc1ccccc1)[C@H](O)CN1C[C@H]2CCCC[C@H]2C[C@H]1C(=O)NC(C)(C)C | HXB2 | PR-M46I I47V I50V | p24 | 0.035 µM